This is an account of results in PMC5487381, “Thioredoxin A Is Essential for Motility and Contributes to Host Infection of Listeria monocytogenes via Redox Interactions” (Frontiers in Cellular and Infection Microbiology, 2017).

The exact form of at least one protein or probe is not confirmed. Protein sequences can lack the tags named with them.

The target in the data set is T1, SigH (Listeria monocytogenes EGD-e) (UniProt Q8YAA8).
T1 sequence (looked up, limits assumed): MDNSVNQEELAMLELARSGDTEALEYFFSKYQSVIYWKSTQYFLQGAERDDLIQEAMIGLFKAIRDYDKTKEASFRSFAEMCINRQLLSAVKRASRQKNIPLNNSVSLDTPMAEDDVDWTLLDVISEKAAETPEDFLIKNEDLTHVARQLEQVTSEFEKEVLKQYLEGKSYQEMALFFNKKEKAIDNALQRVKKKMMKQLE
Put plainly: EMSA. The following applies: 5 mM MgCl2, 2.5 mM EDTA, 2.5 mM DTT, EMSA: 200 ng DNA, 50 mM Tris-HCl pH 8.0, 250 mM NaCl, 5 mM MgCl2, 2.5 mM DTT, 20% glycerol, 30 min, room temperature, native 5% PAGE, 0.5x TAE, recombinant protein, protein details: N-terminal His, label: none (ethidium bromide), probe letters rebuilt from the primers and the genome.

As to “AAGCTGCTGTCATTCCAGCAGGCCCCGCCCCAATAATAATCACATCATAAATTTTTTCTTCACTAGCCATTCTTTTTGCCCTCCTCGTTTATGTGTATACAATAGTTAGCCTAAATTAATCCTAATACGGAATAGCAAAAAGGTCTATTTATCTGCTCAGGACTCGCTCAATATCTCGCGCACATTTACTACATTCAAATTCTTCTACTAATTGAAGCTTCAAATGAGGTAAAAACAGCTTAGCAATTGCACTAGCCACAGTTTCTATCGTATAACGACCAAGTATTAAATCTTTCCCAGCATC (double strand) [PtrxB promoter fragment]”, the binding result is given as “binds”. Turning to “TTACCATGATTTAATTCACTCCTTATGACTTTTGTACACACAGTATAGCACCTAGACCTATTTGGAGCCATGTTTTTGCTCACTTGTTTACTTGAACTCAACGATGGTTACGCCGTTCCCGCCTTCTGCTGCTGCACCGAAACGAATCGATTTGACCATGCGATGATTTTTCAGATACTCTGTGACGCCAGTTCTAAGGGCACCAGTTCCTTTACCGTGAATAATGGCAACTTGAGGATATCCTGCGAGCAGTGCTTCATCCAAGTATTTGTCGACTTTTTGCAAAGCATCTTCGTAACGTTCGCCGCGCAAATCGAGTTCGCTTTTAGCTGGAGAACCACTACTATGAACCG (double strand) [PtrxA promoter fragment]”, the binding result is “binds”.
